Data as given in PubChem BioAssay AID624099 (ICCB-Longwood, 2012).
The deposit covers about 21,000 reagents; shown is a random part of them. Of all reagents, 497 (2.4%) are marked active. 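Higher z means weaker E2 silencing; only reporter increases were scored, and knock-downs that hurt cell survival may mask genuine repressor factors.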 No sequences are given here.

Test: 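Host factors E2 relies on to silence an HPV18 LCR reporter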 (primary screen)
Cells: human C33A cervical carcinoma cells (HPV-negative) stably expressing BPV1 E2 and an HPV18 LCR luciferase reporter
Reagent: siRNA pool against human genes, 40 nM
Time to read-out: 72 h
Measurement: 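Per-well luciferase luminescence, z-scored on each plate against the plate mean and SD with control wells left out, then averaged across three replicate plates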
Direction: mean z-score and z-score: higher = stronger reporter signal, weaker E2 silencing
Call rule: 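Mean z ≥ 2 together with z ≥ 2 in two or more of the three replicates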

no.	Target gene	mean z-score	z-score, replicate A	z-score, replicate B	z-score, replicate C	Outcome
1	VTA1 (vesicle trafficking 1)	-0.5	0.03	-0.89	-0.65	inactive
2	GUSBP4 (GUSB pseudogene 4)	1.13	0.89	1.53	0.96	inactive
3	ARHGEF4 (Rho guanine nucleotide exchange factor 4)	0.65	0.65	0.59	0.72	inactive
4	ARHGAP19 (Rho GTPase activating protein 19)	-0.19	-0.34	-0.39	0.16	inactive
5	ACR (acrosin)	0.26	0.44	0.37	-0.03	inactive
6	RILP (Rab interacting lysosomal protein)	-0.26	-0.11	-0.04	-0.64	inactive
7	FOXJ3 (forkhead box J3)	-1.22	-0.88	-1.44	-1.34	inactive
8	ZNF441 (zinc finger protein 441)	2.18	2.64	2.09	1.8	active
9	ZNF257 (zinc finger protein 257)	0.91	1.28	0.87	0.59	inactive
10	ARFIP1 (ARF interacting protein 1)	-0.43	-0.27	-0.38	-0.66	inactive
11	ZNF608 (zinc finger protein 608)	0.18	0.01	0.31	0.22	inactive
12	AADAT (aminoadipate aminotransferase)	-0.12	-0.12	-0.22	-0.01	inactive
13	DISP2 (dispatched RND transporter family member 2)	-0.89	-0.69	-0.95	-1.02	inactive

Records listed above marked active (1):
Target gene	mean z-score	z-score, replicate A	z-score, replicate B	z-score, replicate C	Outcome
ZNF441 (zinc finger protein 441)	2.18	2.64	2.09	1.8	active

Further results follow:
no.	Target gene	mean z-score	z-score, replicate A	z-score, replicate B	z-score, replicate C	Outcome
14	LOC123855 (retired record)	-0.01	0.25	-0.05	-0.24	inactive
15	CCKAR (cholecystokinin A receptor)	-0.62	-0.81	-0.6	-0.46	inactive
16	FAM53A (family with sequence similarity 53 member A)	-0.19	-0.41	0.08	-0.23	inactive
17	KRT13 (keratin 13)	1.11	1.06	1.3	0.97	inactive
18	SMNDC1 (survival motor neuron domain containing 1)	0.3	0.43	0.22	0.26	inactive
19	ERV3-2 (endogenous retrovirus group 3 member 2)	-1.81	-1.67	-1.71	-2.04	inactive
20	LOC387654 (retired record)	0.52	-0.01	0.85	0.72	inactive
21	CDS2 (CDP-diacylglycerol synthase 2)	-1.1	-1.09	-0.91	-1.29	inactive
22	CHERP (calcium homeostasis endoplasmic reticulum protein)	0.48	0.28	0.52	0.63	inactive
23	PEX10 (peroxisomal biogenesis factor 10)	0.24	0.53	0.06	0.12	inactive
